In PMC4598760 (Biomolecules, 2015):

Test system: influenza virus A/Mem71 (H3N1)

Neu5Gcα2-6Galβ1-4Glcβ-Biotin [OS-20]
virus binding to surface-bound glycan (in words): does not bind
